Compound potency records, mixed from different reports. Data source: NIAID ChemDB in PubChem.

Common to all: tests in culture; species: Human herpesvirus 6; read-out: EC50

ECn: concentration that inhibits the pathogen or its effect by n%. Rows are shuffled and stem from different studies. An empty or dashed field is not shown.

SMILES,strain or isolate,cell line,method,value
OC[C@H]1CC(n2c(Br)nc3cc(Cl)c(Cl)cc32)[C@H](O)[C@@H]1O,6a,HSB-2,hybridisation,5.5 µM
Cc1c(S(=O)(=O)c2ccc(Cl)cc2)c(NC(=O)C(F)(F)F)n(Cc2ccc(Cl)cc2)c1C,GS (TYPE 6A),HSB-2,cytopathic effect,5 µg/mL
Nc1nc2c(ncn2CCC(CO)CO)c(=O)[nH]1,Z-29 (subtype 6B),MOLT-3,cytopathic effect,>100 µg/mL
Nc1ccn(C[C@@H](CO)OCP(=O)(O)O)c(=O)n1,Z-29 (subtype 6B),CBL,flow cytometry,>1.6 µM
Nc1ncnc2c1ncn2/C=C1/CC1(CO)CO,TYPE 6B,HSB-2,flow cytometry,4.6 µM
Nc1ccn(C[C@@H](CO)OCP(=O)(O)O)c(=O)n1,TYPE 6B,MOLT-3,cytopathic effect,1.9 µg/mL
Nc1ncc2c(ncn2COC(CO)CO)n1,GS (TYPE 6),,cytopathic effect,0.005 µg/mL
O[C@@H]1[C@H](O)[C@H](O)CO[C@H]1n1c(Br)nc2cc(Cl)c(Cl)cc21,GS (subtype 6A),SupT1,flow cytometry,>125 µM
Nc1nc2c(ncn2COC(CO)CO)c(=O)[nH]1,Z-29 (subtype 6B),MOLT-3,,15 µg/mL
Nc1nc(Cl)c2ncn(/C=C3/C[C@H]3CO)c2n1,GS,,ELISA,50 µM
O[C@@H]1[C@H](O)CO[C@H]1n1c(Br)nc2cc(Cl)c(Cl)cc21,6a,HSB-2,hybridisation,>10 µM
NC(=O)c1c(Cl)c(-c2cccnc2)n2c1CCCC2,TYPE A (GS),CBLC,hybridisation,0.017 µM
Nc1nc2c(ncn2[C@@H]2C[C@H](CO)[C@H]2CO)c(=O)[nH]1,,Human T-lymphoblasts,cytopathic effect,2.4 µM
OC[C@H]1CC(n2c(NC3CC3)nc3cc(Cl)c(Cl)cc32)[C@H](O)[C@@H]1O,6B,MOLT-3,hybridisation,>100 µM
Nc1nc2c(ncn2C[C@]2(CO)C[C@H]2CO)c(=O)[nH]1,Z-29 (subtype 6B),MOLT-3,,3.48 µg/mL
CC(C)Nc1nc2cc(Cl)c(Cl)cc2n1[C@@H]1O[C@@H](C)[C@@H](O)[C@H]1O,6B,MOLT-3,hybridisation,>20 µM
Nc1ncc2c(ncn2COC(CO)CO)n1,,Human cord blood lymphocytes,cytopathic effect,0.0072 µM
O=C(NCc1ccc(Cl)cc1)c1cn2c3c(cc(CN4CCOCC4)cc3c1=O)OC(c1cccnc1)C2,Z-29 (TYPE B),CBL,antigen / flow cytometry,>18.8 µM
CCCCCOc1nc(N)nc2c1ncn2/C=C1/C[C@@H]1CO,TYPE 6B,HSB-2,flow cytometry,1.2 µM
CC(C)Nc1nc2cc(Cl)c(Cl)cc2n1[C@H]1O[C@@H](CO)[C@H](O)[C@@H]1O,Z-29 (subtype 6B),CBL,flow cytometry,>106 µM
Nc1nc2c(ncn2[C@@H]2C[C@H](CO)[C@H]2CO)c(=O)[nH]1,Z-29 (subtype 6B),MOLT-3,cytopathic effect,2.36 µg/mL
N#CC1C(c2ccc(Cl)cc2)Nc2sccc2S1(=O)=O,GS (TYPE 6A),HSB-2,cytopathic effect,1.8 µg/mL
Nc1ccn(/C=C2/CC2(CO)CO)c(=O)n1,TYPE 6A,HSB-2,flow cytometry,17.8 µM
O=C(O)P(=O)(O)O,Z29 (TYPE 6B),MOLT-3,hybridisation,25.4 µM
C[C@H]1O[C@H](n2c(Br)nc3cc(Cl)c(Cl)cc32)[C@@H](O)[C@H]1O,6B,MOLT-3,hybridisation,55 µM
N#CC1C(c2ccccc2)Nc2sccc2S1(=O)=O,Z29 (TYPE 6B),MOLT-3,cytopathic effect,>20 µg/mL
Nc1nc2c(ncn2COC(CO)CO)c(=O)[nH]1,,Human T-lymphoblasts,cytopathic effect,6.8 µM
O=C(NCc1ccc(Cl)cc1)c1c[nH]c2ccc(C#CCO)cc2c1=O,1 isolates,,cytopathic effect,>100 µM

The last 3 rows once more:

{"SMILES": "N#CC1C(c2ccccc2)Nc2sccc2S1(=O)=O", "strain or isolate": "Z29 (TYPE 6B)", "cell line": "MOLT-3", "method": "cytopathic effect", "value": ">20 µg/mL"}
{"SMILES": "Nc1nc2c(ncn2COC(CO)CO)c(=O)[nH]1", "cell line": "Human T-lymphoblasts", "method": "cytopathic effect", "value": "6.8 µM"}
{"SMILES": "O=C(NCc1ccc(Cl)cc1)c1c[nH]c2ccc(C#CCO)cc2c1=O", "strain or isolate": "1 isolates", "method": "cytopathic effect", "value": ">100 µM"}